# Assay results as given in patent USRE43371E1 (priority 2004, dated 2012).
# Test: general procedure: solution-phase peptide synthesis; TFFH (fragment coupling); PyAOP (cyclisation)
# Conditions: late stage modification step
substance,measurement,value
Ph-NH—C(S)-MeLeu-Val-MeLeu-Ala-D-Ala-MeLeu-MeLeu-MeVal-MeBmt (OAc)-Abu-Sar-OMe,step yield,90%
